Anti-infective test results gathered from many reports (values: NIAID ChemDB through PubChem).

Common to all: tests in culture; species: HIV-1

Neighbouring rows are from separate reports. ECn is the concentration giving n% inhibition of infection, replication or growth. An empty or dashed field is not shown.

SMILES,endpoint,read by,strain or isolate,changes,setting,cell line,result
CC(C)CN(C[C@@H](O)[C@H](Cc1ccccc1)NC(=O)O[C@H]1CCOC1)S(=O)(=O)c1ccc2ncn(CC(C)C)c2c1,EC50,cytopathic effect / MTT,LAI WT,-,-,MT-4,0.02 µM
COc1ccc2nc(-c3cccc(N)c3)ccc2c1,EC50,luciferase,NL4-3,Delta-VSV-Luc,pseudotyped,MT-2,157 µM
NC(=O)c1cccn1S(=O)(=O)c1cc(Cl)ccc1[N+](=O)[O-],EC50,cytopathic effect / MTT,IIIB,-,-,MT-4,27 µM
CC(C)CN(C[C@@H](O)[C@H](Cc1ccccc1)NC(=O)O[C@H]1CO[C@H]2OCC[C@H]21)S(=O)(=O)c1ccc2ncn(Cc3ccccc3)c2c1,EC50,cytopathic effect / MTT,LAI WT,-,-,MT-4,0.001 µM
CC(C)CN(C[C@@H](O)[C@H](Cc1ccccc1)NC(=O)OCc1ccccc1)S(=O)(=O)c1ccc(F)cc1,EC50,p24,IIIB,-,-,CEM,<1.001 µM
CCN1C[C@H](C)N2C(=C(O)C3C(=O)N4Cc5ccc(F)cc5C(=O)NCCCCS(=O)(=O)N(C)C(=N4)C32)C1=O,EC50,-,LAII(IIIB),-,-,MT-4,0.5 µM
CC(C)CN(CC(O)CN(CC(C)C)S(=O)(=O)c1ccc(O)cc1)S(=O)(=O)c1ccccc1,EC50,p24,IIIB,-,-,CEM,<1 µM
C#CCn1cnc2c(N)ncnc21,EC50,cytopathic effect,IIIB,-,-,MT-4,>100 µg/mL
COc1cc2c(c3oc(=O)c(CC#N)c(C)c13)[C@@H](OC(=O)C13CCC(C)(C(=O)O1)C3(C)C)[C@@H](OC(=O)C13CCC(C)(C(=O)O1)C3(C)C)C(C)(C)O2,EC50,p24,IIIB,-,-,H9,0.11 µM
CCN1C[C@H](C)N2C(=C(O)C3C(=O)N4Cc5cc(F)c(F)cc5OCCCCCS(=O)(=O)N(C)C(=N4)C32)C1=O,EC50,-,LAII(IIIB),-,-,MT-4,0.6 µM
FC(F)(Sc1ccccc1)c1nc2ccccc2o1,EC50,cytopathic effect / XTT,RF,-,-,CEM + CEM-SS,36 µM
CC(=O)Nc1cnc(Oc2c(Cl)cccc2Cl)nc1Nc1ccc(C#N)cc1,EC50,MTT,IIIB,-,-,MT-4,32 µM
CC(=O)OCc1c(C)c2ccc3c(c2oc1=O)[C@@H](OC(=O)C12CCC(C)(C(=O)O1)C2(C)C)[C@@H](OC(=O)C12CCC(C)(C(=O)O1)C2(C)C)C(C)(C)O3,EC50,p24,IIIB,-,-,H9,0.028 µM
COc1ccccc1C(=O)Nc1ccc(Cl)c(C(=O)OC(C)C)c1,EC50,cytopathic effect / XTT,UC10-resistant (RT Y181C K101E),RT-Y181C K101E,-,CEM + CEM-SS,>28 µM
N#Cc1ccc(Nc2nc(Oc3c(Br)cc(Br)cc3Br)ncc2N)cc1,EC50,MTT,RES056,-,-,MT-4,4.9 µM
CC(C)C1=C2[C@H]3CC[C@@H]4[C@@]5(C)CC[C@H](OC(=O)[C@H]6C[C@@H](C(=O)O)C6(C)C)C(C)(C)[C@@H]5CC[C@@]4(C)[C@]3(C)CC[C@@]2(CC(=O)NCC(CN)NC(=O)c2ccc(Cl)cc2)CC1=O,EC50,p24 / ELISA,92HT599,-,-,MT-2,<1 µM
CC(=O)OCCOCn1cc(Cn2cc(Cl)c(=O)[nH]c2=O)nn1,EC50,cytopathic effect,IIIB,-,-,MT-4,>100 µg/mL
Cc1ccc2c(c1)[C@@H](N1CCCC1=O)C[C@@H](c1cccc([N+](=O)[O-])c1)N2,EC50,MTT,NL4-3,-,-,MT-2,>50 µM
Cc1ccc(C(=O)NCC[C@@]23CC[C@]4(C)[C@H](CC[C@@H]5[C@@]6(C)CC[C@H](OC(=O)[C@H]7C[C@@H](C(=O)O)C7(C)C)C(C)(C)[C@@H]6CC[C@]54C)C2=C(C(C)C)C(=O)C3)cn1,EC50,p24 / ELISA,92HT599,-,-,MT-2,<1 µM
CC(C)CN(C[C@@H](O)[C@H](Cc1ccccc1)NC(=O)[C@H](CC(N)=O)NC(=O)c1ccc2ccccc2n1)S(=O)(=O)N(C)C,EC90,p24,IIIB,-,-,CEM,<0.1 µM
N#Cc1cc(Cl)cc(Oc2c(Br)ccc(CC(=O)Nc3ccc(S(N)(=O)=O)cc3Cl)c2F)c1,EC50,-,-,E138K,-,MT-4,0.0023 µM
Cc1nc2ccccc2c(-c2cc(F)c3c(c2C)CCCO3)c1[C@H](OC(C)(C)C)C(=O)O,EC50,luminescence,NL4-3,T66I,-,MT-4,0.015 µM
C=C1CN(S(=O)(=O)c2ccc(C)cc2)CCCN(CC2CCCCC2)CCCN(S(=O)(=O)c2ccc(C)cc2)C1,EC50,p24,BaL,-,-,PBMC,1.12 µM
FC(F)(Sc1ncccn1)c1nc2ccccc2o1,EC50,-,IIIB,-,-,-,3.36 µM
O=C1c2c(O)c(=O)n(CC3COCCO3)c(=O)n2CCN1Cc1ccc(F)cc1,EC95,p24,-,-,-,MT-4,<10 µM
Cc1ccnc2c1NC(=O)c1cccnc1N2C1CC1,EC50,MTT,IIIB,-,-,MT-4,0.22 µM
CC(C)=CCOc1cc(NC(=S)c2ccoc2C)ccc1Cl,EC50,cytopathic effect / XTT,IIIB,-,-,MT-2,0.03 µM
COc1cc2c(c3oc(=O)c(COC(C)=O)c(C)c13)[C@@H](OC(=O)C13CCC(C)(C(=O)O1)C3(C)C)[C@@H](OC(=O)C13CCC(C)(C(=O)O1)C3(C)C)C(C)(C)O2,EC50,p24,IIIB,-,-,H9,1.5 µM
Nc1cccc(S(=O)(=O)N(CC2CCCC2)C[C@@H](O)CN(CCc2ccccc2)C(=O)c2ccncc2)c1,EC50,p24,IIIB,-,-,CEM,<0.1 µM
O=C1c2c(O)c(=O)n(CC3CCCN(c4ncccn4)C3)c(=O)n2CCN1Cc1ccc(F)cc1,EC95,p24,-,-,-,MT-4,<10 µM
COc1ccc(S(=O)(=O)N(CC2CCCC2)C[C@@H](O)CN(CCCc2ccccc2)C(=O)O[C@H]2CCOC2)cc1,EC50,p24,IIIB,-,-,CEM,<0.1 µM
FC(F)(Sc1ccccn1)c1nc2ccccc2o1,EC50,cytopathic effect / XTT,RF,-,-,CEM + CEM-SS,29.2 µM
CCN1C[C@H](C)N2C(=C(O)C3C(=O)N4Cc5cc(Cl)c(F)cc5OCCCCS(=O)(=O)N(C)C(=N4)C32)C1=O,EC50,-,LAII(IIIB),-,-,MT-4,0.6 µM
C#CCOC(=O)c1cccn1S(=O)(=O)c1cc(Cl)ccc1[N+](=O)[O-],EC50,cytopathic effect / MTT,IIIB,-,-,MT-4,>4.9 µM
CC(C)CN(C(=O)C(=O)C(=O)C(Cc1ccccc1)NC(=O)O[C@H]1CCOC1)S(=O)(=O)c1ccccc1,EC50,p24,IIIB,-,-,CEM,<1 µM
CC(C)C1=C2[C@H]3CC[C@@H]4[C@@]5(C)CC[C@H](OC(=O)[C@H]6C[C@@H](C(=O)O)C6(C)C)C(C)(C)[C@@H]5CC[C@@]4(C)[C@]3(C)CC[C@@]2(CCNC(=O)c2cnn3cccnc23)CC1=O,EC50,p24 / ELISA,92HT599,-,-,MT-2,<1 µM
CC(C)=CCOc1cc(NC(=S)c2ccsc2C)ccc1Cl,EC50,cytopathic effect / XTT,NL4-3 (RT K101E),RT-K101E,-,CEM + CEM-SS,0.006 µM
Nc1cccc([C@@H]2C[C@H](N3CCCC3=O)c3ccccc3N2)c1,EC50,luciferase,NL4-3-Luc,-,-,MT-2,>163 µM
CC(=O)Nc1cnc(Oc2c(C)cc(C=O)cc2C)nc1Nc1ccc(C#N)cc1,EC50,MTT,IIIB,-,-,MT-4,29 µM
Nc1ccc(Cl)cc1S(=O)(=O)n1cccc1C(=O)Oc1ccccc1,EC50,cytopathic effect / MTT,IIIB,-,-,MT-4,>24 µM
CC(=O)Nc1nc2c(ncn2Cc2cn(COCCOC(C)=O)nn2)c(=O)[nH]1,EC50,cytopathic effect,IIIB,-,-,MT-4,>100 µg/mL
COC(=O)Nc1nc2ccc(S(=O)(=O)N(CC(C)C)C[C@@H](O)[C@H](Cc3ccccc3)NC(=O)c3ccc(N)cc3C)cc2[nH]1,EC50,cytopathic effect / MTT,LAI WT,-,-,MT-4,0.04 µM
CC(=O)Nc1cc(S(=O)(=O)N(CC(C)C)C[C@@H](O)[C@H](Cc2ccccc2)NC(=O)[C@H](CC(N)=O)NC(=O)c2ccc3ccccc3n2)ccc1F,EC50,p24,IIIB,-,-,CEM,<0.101 µM
CC(C)CN(CC(O)CNC1c2ccccc2CC1O)S(=O)(=O)c1ccccc1,EC90,p24,IIIB,-,-,CEM,1 µM
COc1ccc2c(c1)[C@@H](N1CCCC1=O)C[C@@H](c1cccc(N)c1)N2,EC50,luciferase,NL4-3,Delta-VSV-Luc,pseudotyped,MT-2,25.97 µM
CC(=O)OCCOCn1cc(Cn2cc(F)c(=O)[nH]c2=O)nn1,EC50,cytopathic effect,IIIB,-,-,MT-4,>100 µg/mL
Cc1ccc2c(c1)[C@@H](N1CCCC1=O)C[C@@H](c1cccc(N)c1)N2,EC50,luciferase,NL4-3-Luc,-,-,MT-2,74.64 µM
CC(=O)Nc1cnc(Oc2c(C)cc(Br)cc2C)nc1Nc1ccc(C#N)cc1,EC50,MTT,RES056,-,-,MT-4,>147 µM
Cc1cc2c(c3oc(=O)ccc13)[C@@H](OC(=O)C13CCC(C)(C(=O)O1)C3(C)C)[C@@H](OC(=O)C13CCC(C)(C(=O)O1)C3(C)C)C(C)(C)O2,EC50,p24,IIIB,-,-,H9,0.006 µM
CC1(C)CC=C(c2cn(-c3nccc(C(=O)NC4CCC(N5CC6CCC(C5)O6)CC4)n3)c3ccc(F)c([C@H](OC(C)(C)C)C(=O)O)c23)CC1,EC50,luminescence,NL4-3,Q148R,-,MT-4,0.0046 µM
CC(C)C1=C2[C@H]3CC[C@@H]4[C@@]5(C)CC[C@H](OC(=O)[C@H]6C[C@@H](C(=O)O)C6(C)C)C(C)(C)[C@@H]5CC[C@@]4(C)[C@]3(C)CC[C@@]2([C@@H](O)CNC(=O)c2ccncc2)CC1=O,EC50,p24 / ELISA,92HT599,-,-,MT-2,<1 µM
COC(=O)Nc1nc2ccc(S(=O)(=O)N(CC(C)C)C[C@@H](O)[C@H](Cc3ccccc3)NC(=O)OC3COC4OCCC34)cc2[nH]1,EC50,cytopathic effect / MTT,LAI WT,-,-,MT-4,0.025 µM
CC(C)CN(C[C@@H](O)[C@H](Cc1ccccc1)NC(=O)OC(C)(C)C)S(=O)(=O)c1ccccc1F,EC50,p24,IIIB,-,-,CEM,<1.001 µM
CCCCN1C(=O)N(Cc2ccc3[nH]nc(N)c3c2)[C@H](Cc2ccccc2)[C@H](O)[C@@H](O)[C@H]1Cc1ccccc1,EC50,-,Amprenavir-resistant (PR M46I I47V I50V),PR-M46I I47V I50V,-,-,<0.087 µM
CC(C)C1=C2[C@H]3CC[C@@H]4[C@@]5(C)CC[C@H](OC(=O)[C@H]6C[C@@H](C(=O)O)C6(C)C)C(C)(C)[C@@H]5CC[C@@]4(C)[C@]3(C)CC[C@@]2(CCNCC2CCCCC2)CC1=O,EC50,p24 / ELISA,92HT599,-,-,MT-2,<1 µM
CCN1CCN2C(=C(O)C3C(=O)N4Cc5ccc(F)cc5OCCCCCN(C)C(=O)C(=N4)C32)C1=O,EC50,-,LAII(IIIB),-,-,MT-4,7.2 µM
CCOCn1c(Cc2ccccc2)c(C(C)C)c(=O)[nH]c1=O,EC50,cytopathic effect / MTT,RF,-,-,MT-4,0.018 µM
Nc1ccn([C@@H]2O[C@H](CO)C=C2F)c(=O)n1,EC50,cytopathic effect / MTT,xxBRU,-,-,-,<8 µM
CC(=O)Nc1ccc(S(=O)(=O)N(CC(C)C)C[C@@H](O)[C@H](Cc2ccccc2)NC(=O)OC(C)(C)C)cc1,EC50,p24,IIIB,-,-,CEM,<1.001 µM
Cc1cc(Br)cc(C)c1Oc1ncc(N)c(Nc2ccc(C#N)cc2)n1,EC50,MTT,IIIB,-,-,MT-4,0.046 µM
O=C(OCC1CC1)c1cccn1S(=O)(=O)c1cc(Cl)ccc1[N+](=O)[O-],EC50,cytopathic effect / MTT,IIIB,-,-,MT-4,>96 µM
COc1ccc(S(=O)(=O)N(CC2CCCC2)C[C@H](O)CN(CCc2ccccc2)C(=O)O[C@H]2CCOC2)cc1,EC50,p24,IIIB,-,-,CEM,<1 µM
C#CCn1ccc(=O)[nH]c1=O,EC50,cytopathic effect,IIIB,-,-,MT-4,>100 µg/mL
O=C(N[C@@H](Cc1ccccc1)[C@H](O)CN(CC1CCCC1)S(=O)(=O)c1ccc(F)cc1)OCc1cccnc1,EC50,p24,IIIB,-,-,CEM,<1.001 µM
Cc1cc(C#N)cc(C)c1Oc1ncc(N)c(Nc2ccc(C#N)cc2)n1,EC50,MTT,RES056,-,-,MT-4,0.33 µM
CCN1C[C@H](C)N2C(=C(O)C3C(=O)N4Cc5ccc(F)cc5OCCCCCCN(C)C(=N4)C32)C1=O,EC50,-,LAII(IIIB),-,-,MT-4,82.56 µM
Nc1ncnc2c1ncn2[C@H]1C[C@H]2OC[C@@H](O)[C@H]2O1,EC50,-,-,-,-,MT-4,>100 µM
Cc1cc(S(N)(=O)=O)ccc1NC(=O)COc1ccc(Cl)cc1C(=O)c1cc(F)cc(C(F)(F)F)c1,EC50,luciferase,IIIB,RT-G190A,-,HELA MAGI,0.0042 µM
CC(C)C1=C2[C@H]3CC[C@@H]4[C@@]5(C)CC[C@H](OC(=O)[C@H]6C[C@@H](C(=O)O)C6(C)C)C(C)(C)[C@@H]5CC[C@@]4(C)[C@]3(C)CC[C@@]2(CC(=O)NC2(c3ncc(Cl)cn3)CC2)CC1=O,EC50,p24 / ELISA,92HT599,-,-,MT-2,<1 µM
CC(C)n1c(=O)c(O)c2n(c1=O)CCN(Cc1ccc3ccccc3c1)C2=O,EC95,p24,-,-,-,MT-4,<10 µM
O=c1ccn(Cc2cn(COCCO)nn2)c(=O)[nH]1,EC50,cytopathic effect,IIIB,-,-,MT-4,>100 µg/mL
CON(C)CCC1CN(Cc2ccc(F)cc2)C(=O)c2c(O)c(=O)n(C(C)C)c(=O)n21,EC95,p24,-,-,-,MT-4,<10 µM
CC(=O)Nc1nc(C)c(S(=O)(=O)N(Cc2ccccc2)C[C@@H](O)[C@H](Cc2ccccc2)NC(=O)[C@H](CC(N)=O)NC(=O)c2ccc3ccccc3n2)s1,EC50,p24,IIIB,-,-,CEM,<0.101 µM